Molecules are shown by their SMILES.

The chains behind the UniProt entries cited, without tags or fusion partners.
UniProt O00329, whole entry: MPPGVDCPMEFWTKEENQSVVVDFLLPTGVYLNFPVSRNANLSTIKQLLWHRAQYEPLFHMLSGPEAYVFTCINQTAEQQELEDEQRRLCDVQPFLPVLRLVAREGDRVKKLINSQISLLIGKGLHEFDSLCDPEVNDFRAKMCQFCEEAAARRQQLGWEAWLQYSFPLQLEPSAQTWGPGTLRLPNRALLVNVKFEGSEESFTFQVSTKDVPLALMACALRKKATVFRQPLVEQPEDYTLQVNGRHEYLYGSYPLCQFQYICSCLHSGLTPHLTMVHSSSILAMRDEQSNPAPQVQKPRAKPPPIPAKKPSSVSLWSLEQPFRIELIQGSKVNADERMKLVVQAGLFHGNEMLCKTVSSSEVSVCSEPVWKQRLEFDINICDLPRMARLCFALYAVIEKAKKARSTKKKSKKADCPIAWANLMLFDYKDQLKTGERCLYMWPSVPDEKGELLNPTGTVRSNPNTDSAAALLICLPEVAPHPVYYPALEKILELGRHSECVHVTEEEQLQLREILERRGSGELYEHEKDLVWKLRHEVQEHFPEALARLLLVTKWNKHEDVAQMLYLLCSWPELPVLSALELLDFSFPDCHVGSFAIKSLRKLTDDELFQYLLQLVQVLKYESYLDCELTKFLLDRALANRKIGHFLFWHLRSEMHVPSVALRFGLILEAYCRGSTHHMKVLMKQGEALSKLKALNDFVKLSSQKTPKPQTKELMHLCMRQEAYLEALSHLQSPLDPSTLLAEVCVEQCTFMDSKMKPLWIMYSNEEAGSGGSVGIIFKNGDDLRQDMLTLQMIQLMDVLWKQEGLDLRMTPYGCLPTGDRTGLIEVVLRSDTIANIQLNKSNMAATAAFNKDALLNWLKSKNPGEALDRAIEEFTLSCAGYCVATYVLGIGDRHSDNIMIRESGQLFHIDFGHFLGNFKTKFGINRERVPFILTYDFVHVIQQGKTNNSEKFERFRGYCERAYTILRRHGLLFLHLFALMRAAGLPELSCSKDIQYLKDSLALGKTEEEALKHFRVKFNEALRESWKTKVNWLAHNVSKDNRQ

The first test has as its target PI 3-kinase delta (Rat-1 pBABEpuro Myr-HA-hp110 delta cells) (Homo sapiens (Human), UniProt O00329). In words: cell-based. The settings on record: Assay J PI3Kδ.
For orientation: IC50 means the concentration needed to halve the response being measured. Low readings indicate greater potency, high ones weaker potency. The molecule `Cc1ccc(S(=O)(=O)N2CCOCC2)cc1-c1cnc(N)c(C(=O)c2cccnc2)n1` [(ix), reference compound] had an IC50 of 1.26 µM.

The molecule `COCCNS(=O)(=O)c1cc(-c2cnc(N)c(C(=O)c3cccnc3)n2)ccc1Cl` [(vi), reference compound] had an IC50 of 0.17 µM. On the same count and under the same terms, as for `Nc1ncc(-c2ccc(Cl)c(S(=O)(=O)N[C@H]3CC[C@H](O)CC3)c2)nc1C(=O)c1cccnc1` [(v), reference compound], the figure is 0.15 µM; as for `COCCNS(=O)(=O)c1cccc(-c2cnc(N)c(C(=O)c3cccnc3)n2)c1` [(iv), reference compound], 1.36 µM.

As for `Cc1ccc(S(=O)(=O)N2CCOCC2)cc1-c1cnc(N)c(C(=O)c2cccnc2)c1` [(i), reference compound], the IC50 was 1.1 µM.

The test is the same for the next values; noted with them: Assay J PI3Kδ IC50.
Molecule `Cc1noc(-c2cc(-c3cc(S(=O)(=O)NOC(C)(C)C)ccc3C)cnc2N)n1` [Example 47, 3-(6-Amino-5-(3-methyl-1,2,4-oxadiazol-5-yl)pyridin-3-yl)-N-(tert-butoxy)-4-methylbenzenesulfonamide] came in with an IC50 of 0.37 µM. Still for that read-out and setting: as for `Cc1cc(-c2cc(-c3cc(S(=O)(=O)NC[C@@H]4CCCO4)ccc3C)cnc2N)on1` [Example 40, (S)-3-(6-Amino-5-(3-methylisoxazol-5-yl)pyridin-3-yl)-4-methyl-N-((tetrahydrofuran-2-yl)methyl)benzenesulfonamide], the figure is 0.071 µM; as for `Cc1cc(-c2cc(-c3cc(S(=O)(=O)NCC4(O)CCC4)ccc3C)cnc2N)on1` [Example 37.35, 3-(6-Amino-5-(3-methylisoxazol-5-yl)pyridin-3-yl)-N-((1-hydroxycyclobutyl)methyl)-4-methylbenzenesulfonamide], 1.42 µM. Same read-out and setting: for `Cc1cc(-c2cc(-c3cc(S(=O)(=O)NCCO)ccc3C)cnc2N)on1` [Example 73, 3-(6-Amino-5-(3-methylisoxazol-5-yl)pyridin-3-yl)-N-(2-hydroxyethyl)-4-methylbenzenesulfonamide] the value was 1.19 µM; for `Cc1cc(-c2cc(-c3cc(S(=O)(=O)NCC4(CO)CCCCC4)ccc3C)cnc2N)on1` [Example 37.3, 3-(6-Amino-5-(3-methylisoxazol-5-yl)pyridin-3-yl)-N-((1-(hydroxymethyl)cyclohexyl)methyl)-4-methylbenzenesulfonamide], 1.23 µM.

Values taken from US10112926B2 (priority 2014, dated 2018).
